Results of unrelated studies side by side (data: NIAID ChemDB).

Common to all: whole-cell or culture tests; agent: HIV-1; endpoint: EC50

An empty or dashed field is not shown.

smiles | method | setting | changes | cells | strain or isolate | value
CN1/C(=C/c2cc3[n+](c4ccccc24)CCCc2ccc4c(c2-3)-c2cccc[n+]2CCC4)Sc2ccccc21.O=S(=O)([O-])C(F)(F)F.O=S(=O)([O-])C(F)(F)F | visual reading / absorbance | - | - | MT-4 | NL4-3 | 0.09 µM
Nc1nc(=O)n([C@H]2CO[C@@H](CO)S2)cc1F | RT activity | - | RT-M184V | CBMC | HXB2D (RT-M184V) | 10 µM
CC(C)Nc1cccnc1N1CCN(C(=O)c2cc3cc(NS(C)(=O)=O)ccc3[nH]2)CC1 | MTT | - | Y181C | MT-4 | IIIB | 1.916 µM
O=C1N(CC2CCCC2)[C@H](Cc2ccccc2)[C@H](O)[C@@H](O)[C@@H](Cc2ccccc2)N1CC1CCCC1 | hybridisation | - | - | MT-2 | RF | <1.7 µM
CCOCn1c(Cc2ccccc2)c(C(C)C)c(=O)[nH]c1=O | cytopathic effect | - | - | MOLT | HE | 0.009 µg/mL
CC(C)CN(C[C@@H](O)[C@H](Cc1ccccc1)NC(=O)[C@@H](NC(=O)CNCc1cccc(F)c1)C(C)(C)C)S(=O)(=O)c1ccc(N)cc1 | virus yield | - | - | MT-2 | IIIB | <0.0088 µM
CCCOc1ccc(Cc2cc(C3CCN(C[C@H]4CN([C@@H](C(=O)O)C(C)(C)C)C[C@@H]4c4cccc(F)c4)CC3)n(CC)n2)cc1 | β-galactosidase | - | - | HeLa | BaL | <0.0004 µM
Nc1ccn([C@H]2CC[C@@H](CO)O2)c(=O)n1 | cytopathic effect | - | - | MT-4 | FO-01.95 | 1.55 µM
C[C@H](Cn1cnc2c(N)ncnc21)OCP(=O)(O)O | PCR | - | - | Jurkat cells | - | 7.5 µM
COc1ccccc1C(=O)CC1(O)C(=O)Nc2ccc(Br)cc21 | cytopathic effect / syncytia | - | - | C8166 | IIIB | 0.19 µM
Nc1ncnc2c1ncn2CCOCP(=O)(O)O | p24 / syncytia | - | - | Macrophage + Monocytes/macrophages | BaL | 0.02 µM
Cc1cc(S(N)(=O)=O)ccc1NC(=O)COc1ccc(Cl)cc1C(=O)c1cc(Cl)cc(C#N)c1 | β-galactosidase | - | Wild type | MAGI | - | 0.00052 µM
Cc1ccnc2c1NC(=O)c1cccnc1N2C1CC1 | cytopathic effect / XTT | clinical isolate | - | PBMC | WEJO | 0.06 µM
Cc1cc(C#Cc2cccc(N)c2)cc(C)c1Oc1ccnc(NC2CCN(Cc3cccc(C(N)=O)c3)CC2)n1 | MTT | - | Y188L | MT-4 | IIIB | 0.2 µM
O=C(CC1(O)C(=O)Nc2ccc(Cl)cc21)c1cccc([N+](=O)[O-])c1 | cytopathic effect / syncytia | - | - | C8166 | IIIB | 37.84 µM
Cc1cn([C@H]2C[C@H](N=[N+]=[N-])[C@@H](CO)O2)c(=O)[nH]c1=O | cytopathic effect / XTT | - | - | C-344 | RF | 0.25 µM
COC(=O)NCCCC(C)(C)CN(C[C@@H](O)[C@H](Cc1ccccc1)NC(=O)O[C@H]1CO[C@H]2OCC[C@H]21)S(=O)(=O)c1cccc(N)c1 | cytopathic effect / propidium iodide | - | PR-M46I L63P A71V V82F/L I84V | MT-4 | Multi-PI-resistant EP13 | 0.036 µM
N#CN=C1N(CC2CCC2)[C@H](Cc2ccccc2)[C@H](O)[C@@H](O)[C@@H](Cc2ccccc2)N1CC1CCC1 | hybridisation | - | - | MT-2 | RF | <0.84 µM
N[C@@H](Cc1ccc(O)cc1)C(=O)O.O=C(/C=C/c1ccc(O)c(O)c1)O[C@@H]1C[C@](O)(C(=O)O)C[C@@H](O)[C@H]1O | cytopathic effect / neutral red | - | - | MT-2 | IIIB | 0.5 µg/mL
Cc1cn([C@H]2C[C@H](N=[N+]=[N-])[C@@H](CO)O2)c(=O)[nH]c1=O | p24 / luciferase | - | - | MT-4 | NL4-3 | 0.26 µg/mL
C/C=C/CSc1cc(NC(=S)c2ccsc2C)ccc1Cl | cytopathic effect / XTT | - | RT-L74V | CEM + CEM-SS | NL4-3 (RT L74V) | 0.02 µM
Cc1cccc(C)c1OCC(=O)N[C@@H](Cc1ccccc1)[C@@H](O)C[C@H](Cc1ccccc1)NC(=O)[C@H](C(C)C)N1CCCNC1=O | PCR | - | - | Jurkat cells | - | 0.003 µM
Cc1cc(C#Cc2ccc(C(F)(F)F)cc2)cc(C)c1Oc1ccnc(Nc2ccc(C#N)cc2)n1 | MTT | - | E138K | MT-4 | IIIB | ≥1.34 µM
COC(=O)c1cc2c(c(OC)c1-c1ccc(N(C)C)cc1)OCO2 | antigen | - | E138K | C8166 | NL4-3 | 17.84 µM
CC(C)CN(C[C@@H](O)[C@H](Cc1ccccc1)NC(=O)[C@@H](NC(=O)CNCc1cccc(F)c1)C(C)(C)C)S(=O)(=O)c1cccc(N)c1 | virus yield | - | - | MT-2 | RF | <0.0041 µM
Cc1occc1C(=S)Nc1ccc(Cl)c(/C=N/OC(C)(C)C)c1 | cytopathic effect / XTT | - | RT-Y181C | CEM + CEM-SS | UC82-R (RT-Y181C) | 1.1 µM
Cc1cn([C@H]2C[C@H](N=[N+]=[N-])[C@@H](CO)O2)c(=O)[nH]c1=O | luciferase | - | RT-V118I M184V | HeLa | Recombinant | 0.024 µM
O=C(CC1(O)C(=O)Nc2ccc(Cl)cc21)c1ccccc1 | cytopathic effect / syncytia | - | - | C8166 | IIIB | 8.45 µM
Cc1cc(C#Cc2cccnc2)cc(C)c1Oc1ccnc(Nc2ccc(C#N)cc2)n1 | MTT | - | Y188L | MT-4 | IIIB | 0.154 µM
Cc1cn([C@H]2C[C@H](N=[N+]=[N-])[C@@H](CO)O2)c(=O)[nH]c1=O | RT activity | - | - | CBMC | HXB2D | 0.0033 µM
CC(=O)N1CCC(C(=O)N(CCCN2CCC(Cc3ccc(C(N)=O)cc3)CC2)c2ccc(C)c(Cl)c2)CC1 | luciferase | - | - | U87 (CD4+ CCR5+) + U87 | R5X4 subtype B_2 recombinant | 0.0063 µM
Cn1c2ccccc2c2c1cc(C#N)c(=O)n2-c1ccc([N+](=O)[O-])cc1 | luciferase | - | - | HeLa | NL4-3 WT | 0.036 µM
O=C1N(Cc2ccc([N+](=O)[O-])cc2)[C@H](Cc2ccccc2)[C@H](O)[C@@H](O)[C@@H](Cc2ccccc2)N1Cc1ccc([N+](=O)[O-])cc1 | hybridisation | - | - | MT-2 | RF | <8.4 µM
CCC[C@@]1(CCc2ccccc2)CC(O)=C([C@H](CC)c2cccc(NS(=O)(=O)c3ccc(C(F)(F)F)cn3)c2)C(=O)O1 | p24 / luminescence | - | L10F V32I M46I I54M A71V I84V | MT-4 | NL4-3 | >1 µM
Cc1cn([C@@H]2O[C@H](CO[Si](C)(C)C(C)(C)C)C3(OS(=O)(=O)C=C3N)[C@H]2O[Si](C)(C)C(C)(C)C)c(=O)n(C)c1=O | cytopathic effect | - | RT-Y181C | CEM | IIIB | 0.33 µg/mL
CCn1nc(Cc2ccc(S(=O)(=O)c3ccccc3)cc2)cc1C1CCN(C[C@H]2CN([C@@H](C(=O)O)C(C)(C)C)C[C@@H]2c2cccc(F)c2)CC1 | β-galactosidase | 50% human serum | - | HeLa | BaL | <0.0037 µM
COC(=O)NCCCC(C)(C)CN(C[C@@H](O)[C@H](Cc1ccccc1)NC(=O)O[C@H]1CO[C@H]2OCC[C@H]21)S(=O)(=O)c1ccc(N)cc1 | cytopathic effect / propidium iodide | - | PR-M46I L63P A71V V82F/L I84V | MT-4 | Multi-PI-resistant EP13 | 0.046 µM
COc1ccc(S(=O)(=O)N(CC(C)C)C[C@@H](O)[C@H](Cc2ccccc2)NC(=O)O[C@H]2CO[C@@H]3O[C@H]4OCC[C@H]4[C@@H]32)cc1 | p24 / luminescence | - | - | MT-4 | NL4-3 | 0.3563 µM
Cc1cc(C#Cc2ccccc2N)cc(C)c1Oc1ccnc(Nc2ccc(C#N)cc2)n1 | MTT | - | L100I | MT-4 | IIIB | >8.88 µM
CC(=O)c1ccc(C)cc1NC(C(N)=O)c1c(Cl)cccc1Cl | MTT | - | RT-K103N | MAGI | IIIB | 3.8 µM
Cc1cn([C@H]2C=C[C@@H](CO)O2)c(=O)[nH]c1=O | luciferase | - | RT-M41L A62V S68N G112S M184V | HeLa | Recombinant | 0.49 µM
CCn1nc(Cc2ccc(C(F)(F)F)cc2)cc1C1CCN(C[C@H]2CN([C@@H](C(=O)O)C3CCCCC3)C[C@@H]2c2cccc(F)c2)CC1 | β-galactosidase | 50% human serum | - | HeLa | BaL | <0.033 µM
O=C(CC1(O)C(=O)Nc2ccccc21)c1ccccc1Cl | cytopathic effect / syncytia | - | - | C8166 | IIIB | 164 µM
CCc1cc(NCc2nc3c(Cl)ccc(Cl)c3o2)c(=O)[nH]c1C | antigen | - | RT-P236L | MT-4 | HXBE30(RT-P236L) | <0.01 µM
CC(C)=CCN1c2cc(Cl)cc3[nH]c(=S)n(c23)C[C@@H]1C | - | - | RT-K70R L100I | MT-4 | - | <0.1 µM
CC(C)=CCOc1cc(NC(=S)c2ccoc2C)ccc1Cl | cytopathic effect | - | RT-Y181C | CEM | IIIB | 0.015 µg/mL
N#CN=C1N(Cc2ccc(N)cc2)[C@H](Cc2ccccc2)[C@H](O)[C@@H](O)[C@@H](Cc2ccccc2)N1Cc1ccc(N)cc1 | hybridisation | - | - | MT-2 | RF | <2.3 µM
Cc1ccnc2c1NC(=O)c1cccnc1N2C1CC1 | RT activity | - | RT-D67G | MT-4 | HxB2D(RT-D67G) | 0.012 µM
Cc1cc(C#Cc2cccc(N)c2)cc(C)c1Oc1ccnc(NC2CCN(Cc3ccc(C(N)=O)cc3)CC2)n1 | MTT | - | K103N | MT-4 | IIIB | 0.026 µM
CC[C@H](C)[C@H](NC(=O)Cc1ccccn1)C(=O)N[C@@H](Cc1ccccc1)[C@@H](O)[C@H](O)[C@H](Cc1ccccc1)NC(=O)[C@@H](NC(=O)Cc1ccccn1)[C@@H](C)CC | plaque count / virus yield | - | - | MT-2 | Clinical isolate E | <0.95 µg/mL
O=C1N(Cc2cccc(O)c2)[C@H](Cc2ccccc2)[C@H](O)[C@@H](O)[C@@H](Cc2ccccc2)N1Cc1cccc(O)c1 | hybridisation | - | - | MT-2 | RF | <0.054 µM
CC[C@@H](C)[C@H](C(=O)O)N1C[C@H](CN2CCC(c3cc(Cc4ccc(O)cc4)nn3CC)CC2)[C@@H](c2cccc(F)c2)C1 | β-galactosidase | 50% human serum | - | HeLa | BaL | <0.011 µM
O=C(CC1(O)C(=O)Nc2ccc(Br)cc21)c1ccccc1 | cytopathic effect / syncytia | - | - | C8166 | IIIB | 9.82 µM
CC(C)=CCOc1cc(NC(=S)c2ccoc2C)ccc1Cl | luminescence | - | (36G)V38A | TZM-bl | NL4-3 | >2000 µM
Nc1nc(=O)n([C@@H]2CO[C@H](CO)S2)cc1F | RT activity | - | - | CBMC | 4246 | 0.4 µM
COC(=O)NCCCCC(C)(C)CN(C[C@@H](O)[C@H](Cc1ccccc1)NC(=O)O[C@H]1CO[C@H]2OCC[C@H]21)S(=O)(=O)c1ccc2c(c1)OCO2 | cytopathic effect / propidium iodide | - | PR-M46I L63P A71V V82F/L I84V | MT-4 | Multi-PI-resistant EP13 | 0.015 µM
Cc1ccnc2c1NC(=O)c1cccnc1N2C1CC1 | cytopathic effect / XTT | - | RT-K103N | CEM + CEM-SS | NL4-3 (RT K103N) | >2 µM
O=C(NC(=S)Nc1ccc(Br)cn1)c1ccccc1[N+](=O)[O-] | p24 / luciferase | - | - | MT-4 | NL4-3 | 0.12 µM
O=c1[nH]cnc2c1ncn2[C@H]1CC[C@@H](CO)O1 | cytopathic effect | - | RT-K70R | MT-4 | DI-06.92 (HXB2 RT-K70R) | 5.2 µM
O=S(=O)(c1ccccc1)c1ccccc1 | cytopathic effect / XTT | - | RT-Y181C | CEM + CEM-SS | UC38-R(RT-Y181C | 5.3 µM
CC[C@H](C)[C@H](C(=O)O)N1C[C@H](CN2CCC(c3cc(Cc4ccc(O)cc4)nn3CC)CC2)[C@@H](c2cccc(F)c2)C1 | β-galactosidase | 50% human serum | - | HeLa | BaL | <0.011 µM
CC(C)Nc1cccnc1N1CCN(C(=O)c2cc3cc(NS(C)(=O)=O)ccc3[nH]2)CC1 | cytopathic effect | - | RT-A62V S68G T69D V75I F77L F116Y Q151M | MT-4 | BI-03.97 (HXB2(RT-A62V S68G T69D V75I F77L F116Y Q151M)) | 0.04 µM
O=C(CC1(O)C(=O)Nc2ccc(Cl)cc21)c1ccccc1Cl | cytopathic effect / syncytia | - | - | C8166 | IIIB | 1.76 µM
Fc1cccc(F)c1C1SCc2nc3ccccc3n21 | cytopathic effect / XTT | - | RT-Y181C | CEM + CEM-SS | UC82-R (RT-Y181C) | >69 µM
Cc1occc1C(=S)Nc1ccc(Cl)c(/C=N/OC(C)(C)C)c1 | cytopathic effect | - | - | PBL | IIIB | 0.021 µg/mL
CNC(=O)NCCCC(C)(C)CN(C[C@@H](O)[C@H](Cc1ccccc1)NC(=O)O[C@H]1CO[C@H]2OCC[C@H]21)S(=O)(=O)c1ccc2c(c1)OCO2 | cytopathic effect / propidium iodide | - | PR-M46I L63P A71V V82F/L I84V | MT-4 | Multi-PI-resistant EP13 | 0.11 µM
N#CN=C1N(Cc2ccc(C#N)cc2)[C@H](Cc2ccccc2)[C@H](O)[C@@H](O)[C@@H](Cc2ccccc2)N1Cc1ccc(C#N)cc1 | hybridisation | - | - | MT-2 | RF | <7.7 µM
C[C@@H](Cn1cnc2c(N)ncnc21)OCP(=O)(O)O | p24 / syncytia | - | - | Macrophage + Monocytes/macrophages | BaL | 1.4 µM

4 of the rows above, restated:

smiles	method	setting	changes	cells	strain or isolate	value
Cc1occc1C(=S)Nc1ccc(Cl)c(/C=N/OC(C)(C)C)c1	cytopathic effect / XTT	-	RT-Y181C	CEM + CEM-SS	UC82-R (RT-Y181C)	1.1 µM
N#CN=C1N(Cc2ccc(N)cc2)[C@H](Cc2ccccc2)[C@H](O)[C@@H](O)[C@@H](Cc2ccccc2)N1Cc1ccc(N)cc1	hybridisation	-	-	MT-2	RF	<2.3 µM
CC(C)Nc1cccnc1N1CCN(C(=O)c2cc3cc(NS(C)(=O)=O)ccc3[nH]2)CC1	cytopathic effect	-	RT-A62V S68G T69D V75I F77L F116Y Q151M	MT-4	BI-03.97 (HXB2(RT-A62V S68G T69D V75I F77L F116Y Q151M))	0.04 µM
Cc1cc(C#Cc2ccc(C(F)(F)F)cc2)cc(C)c1Oc1ccnc(Nc2ccc(C#N)cc2)n1	MTT	-	E138K	MT-4	IIIB	≥1.34 µM

ECn is the concentration giving n% inhibition of infection, replication or growth. Rows are shuffled and stem from different studies.